In patent publication US20240092860A1:

Biological target: rhesus CD38 on BLCL-C162 cells (rhesus) (UniProt Q5VAN0)
Experiment: cell-based or functional assay

Substance: Shiga toxin effector polypeptide only control
- Cytotoxicity CD50, rhesus BLCL-C162 cells: > 2000 ng/mL
